The chains are these.
B1: BCY16908 (peptide)
peptide: CMNTDNPVCRFYC
modifications: not checked
B2: BCY16910 (peptide)
peptide: CLNPDNPVCRFYC
modifications: not checked
B3: BCY16909 (peptide)
peptide: CLNVDNPVCRFYC
modifications: not checked
B4: BCY16919 (peptide)
peptide: CMNEANPVCRFYC
modifications: not checked
B5: BCY15576 (peptide)
peptide: CASPDNPVCRFYC
modifications: not checked
B6: BCY16926 (peptide)
peptide: CPYVAGRGTCLLC
modifications: not checked
B7: BCY16916 (peptide)
peptide: CMNEDNPVCRFYC
modifications: not checked
B8: BCY16902 (peptide)
peptide: CANHDNPVCRFYC
modifications: not checked
B9: BCY17543 (peptide)
peptide: ACEDNDWVYCSTCA
modifications: not checked
B10: BCY16903 (peptide)
peptide: CANPDNPVCRFYC
modifications: not checked
B11: BCY16933 (peptide)
peptide: ACDWTCYFRPLPCA
modifications: not checked
B12: BCY19538 (peptide)
peptide: CPYQPGSGTCLLC
modifications: not checked
B13: BCY19545 (peptide)
peptide: CPYAPGMGTCLLC
modifications: not checked
B14: BCY19537 (peptide)
peptide: CPYSPGQGTCLLC
modifications: not checked
B15: BCY19543 (peptide)
peptide: CPYLAGTGTCLLC
modifications: not checked
B16: BCY16545 (peptide)
peptide: ACYNHANPVCRYYCA
modifications: not checked
B17: BCY16322 (peptide)
peptide: ACPYVAGRGTCLLCA
modifications: not checked
B18: BCY16538 (peptide)
peptide: ACASPDNPVCRFYCA
modifications: not checked
B19: BCY16544 (peptide)
peptide: CYNHANPVCRYYC
modifications: not checked
B20: BCY15522 (peptide)
peptide: ACYNHANPVCRYYCA
modifications: not checked
B21: BCY16318 (peptide)
peptide: ACPYVAGRATCLLCA
modifications: not checked
B22: BCY16905 (peptide)
peptide: CRNPDNPVCRFYC
modifications: not checked

The first assay addresses Biotinylated 2019-nCoV (COVID-19) S1 protein (16-685), His, Avitag (SARS-CoV-2), P0DTC2. Put plainly: SPR, Biacore T200, geomean. Background: In SPR one partner is held on a chip, and binding of the other changes the refractive index at the surface.
What is called Kd is the free concentration of one partner at which half of the binding sites on the other are occupied at equilibrium, for simple one-to-one binding. Low readings indicate higher affinity, high ones lower affinity. As for B1, the Kd worked out at 33.9 nM.
Turning to B2, the Kd turned out to be 22.6 nM.
As for B3, the Kd amounted to 26.3 nM.
Same read-out and setting: in the case of B4 it was 20.8 nM; in that of B5, 89.9 nM; in that of B6, 2470 nM.
Still for that read-out and setting: the result for B7 reads 17.9 nM.
For B8, the Kd is 24 nM.
Turning to B9, the Kd was found to be 178 nM.
Still for that read-out and setting: in the case of B10 it was 11.1 nM; in that of B11, 25.3 nM.

In the next assay the target is Biotinylated SARS-CoV-2 (COVID-19) S protein RBD, His, Avitag (SARS-CoV-2), P0DTC2. Put plainly: SPR, Biacore T200, geomean.
As to B12, the Kd worked out at 2100 nM.
Take B13: the Kd worked out at 1570 nM.
Same read-out and setting: in the case of B14 it was 2650 nM; in that of B15, 2940 nM.

Another assay deals with wild-type (WT) S1 domain of the SARS-COV-2 Spike Protein (ACROBiosystems, S1N-C82E8) (SARS-CoV-2), P0DTC2. Put plainly: FP direct binding.
As for B16, the Kd is 641 nM.
On to B17, for which the Kd is 722 nM.
B18 yielded a Kd of 229 nM.
In the case of B19, the Kd is 921 nM.
In the case of B20, the Kd came to 370 nM.
The same measure, in the same setting: in the case of B21 it was 602 nM.

A further assay deals with SARS-CoV-2 protein used in the SPR assay of Example 2 (not named). Put plainly: SPR.
Broadly, the pKD is the negative decadic logarithm of the KD, by convention in mol/L. Read a low pKD as a large KD. Turning to B5, the pKD was 6.88.
Still for that read-out and setting: in the case of B22 it was 7.98.

The record behind these values is patent US20250325672A1 (priority 2020, published 2025).
